Results taken from the supplement of paper PMC12637763.
Some of the results follow. Env chains of viruses from a treatment-interruption trial, translated from the printed DNA. IC50 / IC80 of two broadly neutralizing antibodies; lower = more sensitive virus; >50 µg/ml means not reached and <0.001 µg/ml is below the lowest dose. No active / inactive call.

How the values were obtained:
antibody 10-1074 [1] = assay: neutralization IC50; higher = virus less sensitive to the antibody
Description: (§1)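 Pseudovirus bearing the Env chain mixed with antibody, from 50 µg/ml in fivefold dilutions, on TZM-bl reporter cells, in duplicate.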

antibody 3BNC117 [2] = assay: as above
Description: as §1

antibody 10-1074 [3] = assay: neutralization IC80; higher = virus less sensitive to the antibody
Description: as §1

antibody 3BNC117 [4] = assay: as above
Description: as §1

Binder	neutralization IC50 (antibody 10-1074 [1]) [µg/mL]	neutralization IC50 (antibody 3BNC117 [2]) [µg/mL]	neutralization IC80 (antibody 10-1074 [3]) [µg/mL]	neutralization IC80 (antibody 3BNC117 [4]) [µg/mL]
HIV-1 Env, rebound clone, antibody arm (protein) MKVRGMKRNYQHLWGWGTMLLFWMIIMCKAAGNLWVTVYYGVPVWRDAETTLFCASDAKAYDKEVHNVWATHACVPTDPNPQEVRLENVTENFNMWENNMVEQMQTDIISLWDQSLKPCVKLTPLCVTLECTEPKLNSSTSNNSLSSTSNNSQYEEMKNCSFNMTTELRDKQKKVYSLFYKLDIVETDNNSSRYRLINCNTSTLTQACPKVTFEPIPIYYCAPAGFAILKCNDPQFNGTGPCTNVSTVQCTHGIKPVVSTQLLLNGSLAKEQVMIRSKNITDNSKTIIVQLKKPVNITCIRPGNNTRTSIRIGPGQAFYATGEITGDIRKAHCNVSRAEWNRTLQEISTQLQGYFNNKTIIFKNSSGGDLEVTTHSFNCGGEFFYCNTTKLFNSTWYGNETVINGTEASENITLQCRIKQIINMWQRVGQAMYAPPIRGEIRCESNITGLLLTRDGGGGNSSNNETFRPTGGDMRDNWRSELYKYKVVQVEPIGIAPTPAKRRVVEREKRAVGLGAAFLGFLGAAGSTMGAASLTLTVQARQLLSGIVQQQSNLLRAIEAQQHLLKLTVWGIKQLQARVLAVERYLRDQQLLGIWGCSGKLICTTAVPWNSSWSNKSYKDIWDNMTWMQWDKEVLNYTSIIYSLLEESQNQQEKNEQDLLALDKWASLWSWFDISKWLWYIKIFIMIVGGLIGLRIVFTVLSIINRVRQGYSPLSLQTLTPHPEEPDRPGRINEEGGEQDKGRSIRLVNGFLALAWDDLRSLCLFSYHRLRDFISIAARTVELLGRSSLKGLRLGWEGLKYLRNLLGYWSRELKNSAINLIDTIAIAVAGWTDRVIEIVQGSCRAIRNIPRRIRQGAEKALQ	0.068	0.042	0.456	0.133
HIV-1 Env, rebound clone, antibody arm (protein) MTVKGIRRNWQHWWKWSTMLFGILMIYSTAEQLWVTVYYGVPVWKDATTTLFCASDAKAYDTEVHNVWATHACVPTDPNPQEVQLGNVTENFNMWKNNMVEQMQEDIISLWDEGLKPCVKLTPLCVTLNCTDTLNCTNKLENTTNNCNASVGEKSKGEIKNCSFYVTASMNDEKKKEHALFYSLDIAPIDKGNNKNNSTFTNYRLISCNTSVITQACPKVSFEPIPIHYCTPAGFAMLRCNDKKFNGTGPCKNVSTVQCTHGIRPVVSTQLLLNGSLAEEEVVIRSENFTNNAKTIIVQLNETVIINCTRPRYYTTRHRIHIGRGRTFYTAKNIAGTIRQAYCNLSRVDWNNTLKMVAEKLTEQFNKTIAFQPSSGGDPEIVMHSFNCGGEFFYCNTTQLFNSTWNGTQSSNADGNDTIKLPCKIKQFINRWQEVGKAMYAPPIEGLVNCSSRITGLLLTRDGGNNTINNTETFRPGGGDMRDNWRSELYKYKVVKVEPLGIAPTKARRRVVQREKRAVTLGALFLGFLGAAGSTMGAASMTLTVQARQLLSGIVQQQNNLLRAIEAQQHMLQLTVWGIKQLQARVLAVERYLHDQQLLGIWGCSGKLICTTAVPWNTSWSNKSLTDIWDNMTWMEWDREINNYTKLIYTLLEKSQNQQEKNEQELLELDKWANLWSWFDITNWLWYIKIFIMVVGGLIGLRIVFMILSIVNRVRQGYSPLSLQTRLPTPRGPDRPEGIEEGGGERDKDGSNRLVDGFLALIWDDLRSLCLFSYHRLRDLLLIVTRIVELLGRRGWEALKYWWNLLQYWGQELRQSAISLLNATAIAVAEGTDRIIEFIQRAGRAIIHIPRRIRQGFERALQ	> 50	0.087	> 50	0.281
HIV-1 Env, rebound clone, antibody arm (protein) MTVKGIRRNWQHWWKWSTMLFGILMIYSTAEQLWVTVYYGVPVWKDATTTLFCASDAKAYDTEVHNVWATHACVPTDPNPQEVQLGNVTENFNMWKNNMVEQMQEDIISLWDEGLKPCVKLTPLCVTLNCTDTLNCTNKLENTTNNCNASVGEKSKGEIKNCSFYVTASMNDEKKKEHALFYSLDIAPIDKGNNKNNSTFTNYRLISCNTSVITQACPKVSFEPIPIHYCTPAGFAMLRCNDKKFNGTGPCKNVSTVQCTHGIRPVVSTQLLLNGSLAEEEVVIRSENFTNNAKTIIVQLNETVIINCTRPRYYTTRHRIHIGRGRTFYTAKNIAGTIRQAYCNLSRVDWNNTLKMVAEKLTEQFNKTIAFQPSSGGDPEIVMHSFNCGGEFFYCNTTQLFNSTWNGTQSSNADGNDTIKLPCKIKQFINRWQEVGKAMYAPPIEGLVNCSSRITGLLLTRDGGNNTTNNTETFRPGGGDMRDNWRSELYKYKVVKVEPLGIAPTKARRRVVQREKRAVTLGALFLGFLGAAGSTMGAASMTLTVQARQLLSGIVQQQNNLLRAIEAQQHMLQLTVWGIKQLQARVLAVERYLHDQQLLGIWGCSGKLICTTAVPWNTSWSNKSLTDIWDNMTWMEWDREINNYTKLIYTLLEKSQNQQEKNEQELLELDKWANLWSWFDITNWLWYIKIFIMVVGGLIGLRIVFMILSIVNRVRQGYSPLSLQTRLPTPRGPDRPEGIEEGGGEKDKDGSNRLVDGFLALIWDDLRSLCLFSYHRLRDLLLIVTRIVELLGRRGWEALKYWWNLLQYWGQELRQSAISLLNATAIAVAEGTDRIIEFIQRAGRAIIHIPRRIRQGFERALQ	> 50	4.62	> 50	> 50
HIV-1 Env, rebound clone, antibody arm (protein) MRVRGMRKNWQDLWRWGIMLLGMLMICNATKNSWVTVYYGVPVWKEASTTLFCASDAKAYDTEVHNVWATHACVPTDPSPQEIKLENVTEEFNMWKNNMVEQMHEDIISLWDQSLKPCVKLTPLCVTLNCTEVVQNNTRQNNTIGEIKNCSFQVSTNLQDKTHKEYALFYKLDIVQLNKSDNISYRLISCNTSDLRQACPKVSFEPIPIHYCAPAGFAILKCNDTRFSGKGTCKNVTTIQCTHGIRPVVSTQLLLNGSLAEEGVVIRSDNISDNTKTIIVQLSKAVKINCTRPNNNTRKGIHIGPGRAFYATGKIIGDIRQAHCDLSGAEWNNTLSQIFEELKKEFKNKTIAFNQSSGGDLEIVLHSFNCGGEFFYCNTSKLFNSTWNSTWNNNSTRNNSEYTITLPCRIRQIINLWQEVGKAMYAPPIEGQIRCSSNITGLLLTRDGGDTNSTTEVFRPGGGNMKDNWRSELYKYKVVKIEPLGVAPTRAKRRVVQREKRAVGIGALFLGFLGAAGSTMGAASMTLTVQARQLLSGIVQQQNNLLRAIEAQQHLLQLTVWGIKQLQARVLAVERYLKDQQLLGIWGCSGKLICTTAVPWNTSWSNKSLDDIWNNMTWMQWEKEIDNYTGLIYSLIEKSQNQQEKNEKDLLELDKWASLWTWFDITNWLWYIRIFIMIVGGLVGLRIVFVVLSVVNRVRKGYSPLSFQTHHPVPGGPDRPAGIGEEGGDKDRDGSTRLVDGFLAIIWVDLRSLFLFSYHRLRDLLLIVTRIVELLGRRGWEALKYWWNLLQYWSQELKKSAVSLYDTIAIAVAEGTDRIIEAIQGTCRAILHIPRRIRQGLERLLL	> 50	0.019	> 50	0.052
HIV-1 Env, rebound clone, antibody arm (protein) MRVRGMRKNWQDLWRWGIMLLGMLMICNATKNSWVTVYYGVPVWKEASTTLFCASDAKAYDTEVHNVWATHACVPTDPSPQEIKLENVTEEFNMWKNNMVEQMHEDIISLWDQSLKPCVKLTPLCVTLNCTEVVQNNTRQNNTIGEIKNCSFQVSTNLQDKTHKEYALFYKLDIVQLNKSDNISYRLISCNTSDLRQACPKVSFEPIPIHYCAPAGFAILKCNDTRFSGKGTCKNVTTIQCTHGIRPVVSTQLLLNGSLAEEGVVIRSDNISDNTKTIIVQLSKAVKINCTRPNNNTRKGIHIGPGRAFYATGKIIGDIRQAHCDLSGAEWNNTLSQIFEELKKEFKNKTIAFNQSSGGDLEIVLHSFNCGGEFFYCNTSKLFNSTWNSTWNNNSTRNNSEYTITLPCRIRQIINLWQEVGKAMYAPPIEGQIRCSSNITGLLLTRDGGDTNSTTEVFRPGGGNMKDNWRSELYKYKVVKIEPLGVAPTRAKRRVVQREKRAVGIGALFLGFLGAAGSTMGAASMTLTVQARQLLSGIVQQQNNLLRAIEAQQHLLQLTVWGIKQLQARVLAVERYLKDQQLLGIWGCSGKLICTTAVPWNTSWSNKSLDDIWNNMTWMQWEKEIDNYTGLIYSLIEKSQNQQEKNEKDLLELDKWASLWTWFDITNWLWYIRIFIMIVGGLVGLRIVFVVLSVVNRGRKGYSPLSFQTHHPVPGGPDRPAGIGEEGGDKDRDGSTRLVDGFLAIIWVDLRSLFLFSYHRLRDLLLIVTRIVELLGRRGWEALKYWWNLLQYWSQELKKSAVSLYDTIAIAVAEGTDRIIEAIQGTCRAILHIPRRIRQGLERLLL	> 50	0.027	> 50	0.093
HIV-1 Env, rebound clone, antibody arm (protein) MRVRGMRKNWQDLWRWGIMLLGMLMICNATKNSWVTVYYGVPVWKEASTTLFCASDAKAYDTEVHNVWATHACVPTDPSPQEIKLENVTEEFNMWKNNMVEQMHEDIISLWDQSLKPCVKLTPLCVTLNCTEVVQNNTRQNNTIGEIKNCSFQVSTNLQDKTHKEYALFYKLDIVQLNKSDNISYRLISCNTSDLRQACPKVSFEPIPIHYCAPAGFAILKCNDTRFSGKGTCKNVTTIQCTHGIRPVVSTQLLLNGSLAEEGVVIRSDNISDNTKTIIVQLSKAVKINCTRPNNNTRKGIHIGPGRAFYATGKIIGDIRQAHCDLSGAEWNNTLSQIFEELKKEFKNKTIAFNQSSGGDLEIVLHSFNCGGEFFYCNTSKLFNSTWNSTWNNNSTRNNSEYTITLPCRIRQIINLWQEVGKAMYAPPIEGQIRCSSNITGLLLTRDGGDTNSTTEVFRPGGGNMKDNWRSELYKYKVVKIEPLGVAPTRAKRRVVQREKRAVGIGALFLGFLGAAGSTMGAASMTLTVQARQLLSGIVQQQNNLLRAIEAQQHLLQLTVWGIKQLQARVLAVERYLKDQQLLGIWGCSGKLICTTAVPWNTSWSNKSLDDIWKNMTWMQWEKEIDNYTGVIYSLIEKSQNQQEKNEKDLLELDKWASLWTWFDITNWLWYIRIFIMIVGGLVGLRIVFVVLSVVNRVRKGYSPLSFQTHHPVPGGPDRPAGIGEEGGDKDRDGSTRLVDGFLAIIWVDLRSLFLFSYHRLRDLLLIVTRIVELLGRRGWEALKYWWNLLQYWSQELKKSAVSLYDTIAIAVAEGTDRIIEAIQGTCRAILHIPRRIRQGLERLLL	> 50	0.034	> 50	0.093
